Measured values: patent US20230398207A1

Target: recombinant hACE2-Fc protein (GenScript) (human) (UniProt Q9BYF1)

Recombinant SARS-CoV-2 spike protein containing only the ectodomain (S1S2) (from UniProt P0DTC2 14-1204) (other; other documents disagree on this pair)
EC50: 0.14 mg/L
